Reference: ChEMBL document CHEMBL1124036 (J Med Chem, 1988)
Values after ≈ are worked out from the molar mass of the structure shown.

Each compound was assayed on Vaccinia virus (assay: The minimum inhibitory concentration required for 50% inhibition of vaccinia virus induced cytopathogenic effect in L929 cells).

Row | SMILES | MIC50
1 | [N-]=[N+]=N[C@H]1C(n2cnc3c(N)nc(Cl)nc32)O[C@H](CO)[C@@H]1O (stereo not given in full) | 187 µg/mL (≈ 572 µM)
2 | [N-]=[N+]=N[C@H]1C(n2cnc3c(N)nc(F)nc32)O[C@H](CO)[C@@H]1O (stereo not given in full) | 14 µg/mL (≈ 45.1 µM)
3 | Nc1nc(F)nc2c1ncn2C1O[C@H](CO)[C@H](O)[C@H]1N (stereo not given in full) | 68 µg/mL (≈ 239 µM)
4 | Nc1nc(Cl)nc2c1ncn2C1O[C@H](CO)[C@H](O)[C@H]1Cl (stereo not given in full) | 83 µg/mL (≈ 259 µM)
5 | Nc1nc(F)nc2c1ncn2C1O[C@H](CO)[C@H](O)[C@H]1Cl (stereo not given in full) | 75 µg/mL (≈ 247 µM)
